Measured values as given in US20160144013A1 (YALE UNIVERSITY, published 2016).

Experiments:
[1] = molecular target: PltA (A subunit of typhoid toxin) (Salmonella enterica serovar Typhi)
[2] = molecular target: PltB pentamer (homomeric B subunit of typhoid toxin) (Salmonella enterica serovar Typhi); test: interface analysis of the crystal structure of the holotoxin
[3] = molecular target: T1, PltB pentamer (homomeric B subunit of typhoid toxin) (Salmonella enterica serovar Typhi)
T1 chain: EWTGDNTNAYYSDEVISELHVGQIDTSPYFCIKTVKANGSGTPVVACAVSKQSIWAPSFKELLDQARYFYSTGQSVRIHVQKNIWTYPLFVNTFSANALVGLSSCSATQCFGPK

CdtB (A subunit of typhoid toxin) was tested, and the buried surface area [1] was 950 Å^2 and the ΔiG [1] was -5.2 kcal/mol.

In the case of “PltA (A subunit of typhoid toxin) (enzyme)”, the buried surface area [2] is reported as 1660 Å^2 and the ΔiG [2] is reported as -17.7 kcal/mol.

B1: CdtB (A subunit of typhoid toxin) (enzyme)
chain: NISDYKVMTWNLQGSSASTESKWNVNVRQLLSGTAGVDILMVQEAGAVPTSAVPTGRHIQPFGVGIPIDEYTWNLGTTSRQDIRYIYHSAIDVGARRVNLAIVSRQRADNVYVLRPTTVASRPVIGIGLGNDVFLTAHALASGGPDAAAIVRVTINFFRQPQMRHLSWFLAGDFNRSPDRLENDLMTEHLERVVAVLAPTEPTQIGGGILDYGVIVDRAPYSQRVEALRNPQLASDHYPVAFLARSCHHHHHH
B1: no binding [3].
